Anti-infective test results gathered from many reports (values: NIAID ChemDB through PubChem).

Common to all: whole-cell or culture tests; agent: Mycobacterium tuberculosis

MIC50, MIC90 and the like: level of inhibition, or share of isolates inhibited. Two numbers with a dash give a range or band. Blank or dashed fields: not listed here. MIC bound comes from a single tested concentration. ECn is the concentration giving n% inhibition of infection, replication or growth. Conditions beyond the fields shown may differ between rows. Inhibition is in % at the dose shown (toxicity tests: loss of growth or viability).

structure,strain,endpoint,method,mutations,tested at,value
CO[C@H]1[C@H](O)C[C@H](O[C@@H]2C[C@H](O[C@@H]3C[C@H](O[C@@H]4C(=O)c5c(cc6cc(O[C@H]7C[C@@H](O[C@H]8C[C@@H](O)[C@H](O)[C@@H](C)O8)[C@H](O)[C@@H](C)O7)c(C)c(O)c6c5O)C[C@H]4[C@H](OC)C(=O)[C@@H](O)[C@@H](C)O)O[C@H](C)[C@H]3O)O[C@H](C)[C@H]2O)O[C@@H]1C,H37Rv,inhibition,,,6.25 µg/mL,9%
CC(C)N1C(NNC(=O)c2cnccn2)=NS(=O)(=O)c2ccccc21,Clinical isolates drug-resistant,MIC,,,,>16 µg/mL
CCCCOc1cccc(NC(=O)OC(COCC)CN2CCCCC2)c1,My 331/88,MIC,,,,62.5 µM
CC(C)(C)c1cc(C(C)(C)C)c2oc(-c3ccccc3)nc2c1,H37Rv,inhibition,BACTEC,,6.25 µg/mL,<90%
CC[C@H](C)[C@@H]1NC(=O)[C@@H]2CCCN2C(=O)[C@@H](CC(C)C)OC(=O)CCNC(=O)[C@@H](C)N(C)C(=O)[C@H](C(C)C)N(C)C1=O,H37Rv,inhibition,BACTEC,,12.5 µg/mL,-8%
CN1C(NNC(=O)c2cccnc2)=NS(=O)(=O)c2ccc(Cl)cc21,Clinical isolates drug-sensitive,MIC,,,,4–8 µg/mL
CCOC(=O)c1c(C)c(-c2ccc(Cl)cc2)n(CC(=O)NN=C2CCCCC2)c1C,H37Rv (ATCC 27294),inhibition,resazurin,,6.25 µg/mL,79%
COc1cc2c(c3c[n+](C)c4c5cc6c(cc5ccc4c13)OCO6)OCO2,H37Rv,MIC,BACTEC,,,<12.5 µg/mL
Cc1ccc(-c2cc(CN3CCOCC3)c(C)n2-c2ccc(F)cc2)cc1,H37Rv wild-type,MIC,,,,0.16 µM
CC1OC2CC(=O)OC2c2c(O)c3c(c(O)c21)C(=O)C1=C(C3=O)C2CC(O)C1(O)C(C)O2,H37Rv,inhibition,resazurin,,6.25 µg/mL,24%
COc1ccccc1/C=N/NC(=O)Cc1csc2nc(-c3ccccc3)cn12,H37Rv,inhibition,,,12.5 µg/mL,73%
CCC1CCC2CN(/N=C/c3c4c(O)c5c(O)c(C)c6c(c5c3O)C(=O)[C@@](C)(O/C=C/[C@H](OC)[C@@H](C)[C@@H](OC(C)=O)[C@H](C)[C@H](O)[C@H](C)[C@@H](O)[C@@H](C)/C=C/C=C(/C)C(=O)N4)O6)CCN2C1,H37Rv,MIC,,,,0.03 µg/mL
CCCCCOc1cccc(NC(=O)OC(C)CN2CCCCC2)c1,My 331/88,MIC,,,,8 µM
CCOC(=O)c1c(C)[nH]c(/C=N/NC(=O)Cn2c(C)c(C(=O)OCC)c(C)c2-c2ccc(Cl)cc2)c1C,H37Rv (ATCC 27294),EC50,resazurin,,,7.979 µg/mL
NC(=O)c1ccc(N=Nc2c(N)cc(N)cc2O)cc1,H37Rv,inhibition,BACTEC,,12.5 µg/mL,12%
CCCCS(=O)(=O)Nc1ccc2[nH]c(C(=O)N3CCCCCC3)c(C)c2c1,H37Rv,MIC90,resazurin,,,25 µM
Cc1ccc2sc3cc(=O)cc(C)c-3nc2c1,H37Rv,MIC,resazurin,,,3.13 µg/mL
CCC(C)[C@H]1OC(=O)[C@H](Cc2ccccc2)N(C)C(=O)[C@@H](C(C)C)OC(=O)[C@H](Cc2ccccc2)N(C)C(=O)[C@@H](C(C)C)OC(=O)[C@H](Cc2ccccc2)N(C)C1=O,H37Ra,MIC,,,,25 µg/mL
NC(=S)c1nnn(Cc2ccccc2)c1N,H37Rv,MIC90,resazurin,,,125 µM
COc1cc2ccc3c4c(OC)cc5c(c4c[n+](C)c3c2cc1OC)OCO5,H37Rv,inhibition,BACTEC,,12.5 µg/mL,70%
CC(=O)NS(=O)(=O)c1ccc(NC(=O)COC(=O)c2cccc3c(=O)c4ccccc4[nH]c23)cc1,H37Rv,inhibition,resazurin,,6.25 µg/mL,6%
O=C(Cc1csc2nc(-c3ccccc3)cn12)N/N=C/c1ccc([N+](=O)[O-])o1,H37Rv,EC50,,,,<12.5 µg/mL
CCCCOc1cccc(NC(=O)OCCN2CCCCC2)c1,My 331/88,MIC,,,,62.5 µM
CN1C(=O)N(C)C2(C(=O)N(C)C(=S)N2C)N(C)C1=O,H37Rv,MIC bound,resazurin,,,>6.25 µg/mL
CCCCCOc1ccccc1NC(=O)OC(COCC)CN1CCCCC1,My 331/88,MIC,,,,62.5 µM
O=C(Cc1csc2nc(-c3ccccc3)cn12)N/N=C/c1c(Cl)cccc1Cl,H37Rv,inhibition,,,12.5 µg/mL,17%
CCOC(=O)c1cc(-c2ccc(Cl)cc2)n(CCC(=O)N/N=C/c2ccc(NC(C)=O)cc2)c1C,H37Rv (ATCC 27294),inhibition,resazurin,,6.25 µg/mL,50%
COC(=O)C(=O)c1c(-c2ccc(O)c(OC)c2)[nH]c2[nH]n(-c3ccccc3)c(=O)c2c1=O,H37Rv,MIC,BACTEC,,,≥12.5 µg/mL
COc1cc2c[n+](C)c3c4cc(OC)c(OC(C)C)cc4ccc3c2cc1OC,H37Rv,MIC,BACTEC,,,<12.5 µg/mL
O=C(NNC1=NS(=O)(=O)c2ccccc2N1c1ccccc1)c1ccncc1,H37Rv (ATCC 27294),MIC,,,,>16 µg/mL
NNC(=O)c1ccncc1,Clinical isolate 12556,MIC,broth dilution,,,≤0.2 µM
CCCCCOc1ccccc1NC(=O)OC(C)CN1CCCCC1,My 331/88,MIC,,,,62.5 µM
CC(C)(C)c1cc(C(C)(C)C)c2oc(-c3ccsc3)nc2c1,H37Rv,inhibition,BACTEC,,6.25 µg/mL,<90%
Cc1[nH]c(=O)c2oc3cc4ccccc4cc3c2c1C(=O)O,H37Rv,MIC bound,BACTEC,,,>12.5 µg/mL
CO/C(C)=C1/NC(=O)[C@H]([C@@H](C)O)NC(=O)c2csc(n2)-c2cc(O)c(-c3nc(C(=O)NCCCN4CCOCC4)cs3)nc2-c2csc(n2)[C@@H]2COC(=O)c3c4c5c(cccc5n3O)COC(=O)[C@@H](O[C@H]3C[C@](C)(O)[C@H](N(C)C)[C@H](C)O3)[C@@H](OC4)[C@H](NC(=O)c3csc1n3)c1nc(cs1)C(=O)N2,Clinical isolate 565,MIC,broth dilution,Rifampicin- and isoniazid-resistant,,≤25 µM
COc1ccc2[nH]c3c(C)c4cc[n+](COC(=O)c5ccccc5)cc4c(C)c3c2c1,H37Rv,inhibition,resazurin,,6.25 µg/mL,100%
CCCCS(=O)(=O)Nc1ccc2[nH]c(C(=O)NCC3CC3)c(C)c2c1,H37Rv,MIC90,resazurin,,,1.6 µM
Cc1cccc(-c2nc3cc(C(C)(C)C)cc(C(C)(C)C)c3o2)c1,H37Rv,inhibition,BACTEC,,6.25 µg/mL,<90%
CCOC(=O)c1cc(-c2ccc(C)cc2)n(C(C)C(=O)N/N=C/c2ccco2)c1C,H37Rv (ATCC 27294),inhibition,resazurin,,6.25 µg/mL,0%
Cc1ccc(NC(=O)N2CC(C)OC(C)C2)cc1[N+](=O)[O-],H37Rv,inhibition,BACTEC,,12.5 µg/mL,0%
CCCCOc1ccccc1NC(=O)OCCN1CCCCC1,My 331/88,MIC,,,,250 µM
Clc1cccc(Cl)c1C1SCc2nc3ccccc3n21,H37Rv,inhibition,BACTEC,,12.5 µg/mL,0%
CCCCS(=O)(=O)Nc1ccc2[nH]c(C(N)=O)c(C)c2c1,DRM167 16x3,MIC90,resazurin,V123A DG167-resistant,,>100 µM
O=C(Cc1csc2nc(-c3ccccc3)cn12)N/N=C/c1ccc([N+](=O)[O-])cc1,H37Rv,inhibition,,,12.5 µg/mL,64%
C[n+]1cc2cc3c(cc2c2ccc4cc5c(cc4c21)OCO5)OCO3,H37Rv,inhibition,BACTEC,,12.5 µg/mL,98%
CO[C@H]1/C=C/O[C@@]2(C)Oc3c(C)c(O)c4c(O)c(c(/C=N/N5CCN(C)CC5)c(O)c4c3C2=O)NC(=O)/C(C)=C\C=C\[C@H](C)[C@H](O)[C@@H](C)[C@@H](O)[C@@H](C)[C@H](OC(C)=O)[C@@H]1C,Clinical isolate 8600,MIC,broth dilution,Rifampicin- and isoniazid-resistant,,≤10 µM
CN1C(NNC(=O)c2cnccn2)=NS(=O)(=O)c2ccccc21,Clinical isolates drug-sensitive,MIC,,,,0.5–1 µg/mL
c1ccc2c(c1)Sc1ccccc1N2CCCN1c2ccccc2Sc2ccccc21,H37Rv,MIC bound,BACTEC,,,>12.5 µg/mL
C/C=C1\C(=O)O[C@]23C=C[C@@H]4C(C(=O)OC)=CO[C@H](O[C@@H]12)[C@@H]43,MDR2 clinical isolate,MIC,MTT,,,2.5 µg/mL
COc1c(OCc2ccccc2)ccc2c1c[n+](C)c1c3cc4c(cc3ccc21)OCO4,H37Rv,inhibition,BACTEC,,12.5 µg/mL,100%
CN1C(NC(=O)c2ccc(Cl)nc2)=NS(=O)(=O)c2cc(Cl)ccc21,Clinical isolates drug-sensitive,MIC,,,,>16 µg/mL
CSC(=S)N1CC(=O)N(C(=S)SC)CC1=O,H37Rv,MIC,BACTEC,,,≥128 µg/mL
CN1C(NC(=O)c2cnccn2)=NS(=O)(=O)c2cc(Cl)ccc21,H37Rv (ATCC 27294),MIC,,,,>16 µg/mL
CCCCS(=O)(=O)Nc1ccc2[nH]c(C#N)c(C)c2c1,DRM167 8x3,MIC90,resazurin,I145T DG167-resistant,,>100 µM
CC(C)(C)c1cc(C(C)(C)C)c2oc(-c3ccncc3)nc2c1,H37Rv,MIC,,,,32 µg/mL
CC(=O)OCCn1c2ccccc2nc2cc3c(cc21)c(Cl)c(=O)c1ccccc13,H37Rv,inhibition,BACTEC,,12.5 µg/mL,92%
CCCCS(=O)(=O)Nc1ccc2[nH]c(C(=O)OC(C)C)c(C)c2c1,H37Rv,MIC90,resazurin,,,0.78 µM
CN1C(NNC(=O)c2ccc(Cl)nc2)=NS(=O)(=O)c2ccccc21,Clinical isolates drug-sensitive,MIC,,,,>16 µg/mL
CCOC(=O)c1cc(-c2ccc(Cl)cc2)n(CCC(=O)N/N=C/c2cccs2)c1C,H37Rv (ATCC 27294),inhibition,resazurin,,6.25 µg/mL,82%
COc1ccc(/C(C#N)=C2C=C/C(=N\O)C(C)=C\2Cl)cc1,H37Rv,inhibition,BACTEC,,12.5 µg/mL,86%
CCCCOc1ccc(NC(=O)OC(C)CN2CCCCC2)cc1,My 331/88,MIC,,,,62.5 µM
CO/C(C)=C1/NC(=O)[C@H]([C@@H](C)O)NC(=O)c2csc(n2)-c2cc(O)c(-c3nc(C(=O)NNC4CCN(C)CC4)cs3)nc2-c2csc(n2)[C@@H]2COC(=O)c3c4c5c(cccc5n3O)COC(=O)[C@@H](O[C@H]3C[C@](C)(O)[C@H](N(C)C)[C@H](C)O3)[C@@H](OC4)[C@H](NC(=O)c3csc1n3)c1nc(cs1)C(=O)N2,Clinical isolate 565,MIC,broth dilution,Multidrug-resistant,,10–100 µM
CCc1ccc(-c2cc(CN3CCOCC3)c(C)n2-c2ccc(F)cc2)cc1,H37Rv DR3,MIC,,V681I S87P,,0.66 µM
C[C@]12CC[C@H]3[C@@H](CC[C@]4(O)C[C@@H](O)CC[C@]34C=O)[C@@]1(O)CC[C@@H]2C1=CC(=O)OC1,H37Rv,MIC bound,BACTEC,,,>12.5 µg/mL
CCOC(=O)c1cc(-c2ccc(Cl)cc2)n(C(C)C(=O)N=Nc2c(O)[nH]c3ccccc23)c1C,H37Rv (ATCC 27294),inhibition,resazurin,,6.25 µg/mL,60%
COc1ccc(-c2cc(CN3CCSCC3)c(C)n2-c2ccc(F)cc2)cc1,H37Rv,MIC90,,,,10.08 µM
CN1C(NNC(=O)c2cnccn2)=NS(=O)(=O)c2ccc(Cl)cc21,H37Rv (ATCC 27294),MIC,,,,>16 µg/mL
COC(=O)c1cc(-c2ccc(OC)cc2)c2c(=O)n(-c3ccccc3)[nH]c2n1,H37Rv,inhibition,BACTEC,,12.5 µg/mL,9%
CCCCOc1ccc(NC(=O)OCCN2CCCCC2)cc1,My 331/88,MIC,,,,62.5 µM
Cc1cc(=O)c2c([nH]1)c1c(c3[nH]c(C)cc(=O)c32)Oc2ccccc2O1,H37Rv,inhibition,resazurin,,6.25 µg/mL,46%
CCn1cc(C(=O)O)c(=O)c2cc(F)c(N3CCNC(C)C3)c(F)c21,H37Rv,MIC,,,,0.5 µg/mL
CCOc1cc(=O)cc2n(-c3cc(OCC)c(O)c(OCC)c3)c3ccccc3nc1-2,H37Rv,MIC bound,BACTEC,,,>12.5 µg/mL
C=C(NC(=O)c1csc(-c2nc3c(cc2O)-c2nc(cs2)C(=O)N[C@@H]([C@@H](C)O)C(=O)N/C(=C(\C)OC)c2nc(cs2)C(=O)N[C@@H]2c4nc(cs4)C(=O)N[C@@H](COC(=O)c4c5c6c(cccc6n4O)COC(=O)[C@@H](O[C@H]4C[C@](C)(O)[C@H](N(C)C)[C@H](C)O4)[C@H]2OC5)c2nc-3cs2)n1)C(N)=O,Clinical isolate 6134,MIC,broth dilution,Rifampicin- isoniazid- moxifloxacin-resistant,,≤2.5 µM